The values that follow come from ChEMBL document CHEMBL1687805, “Colistin resistance in Acinetobacter baumannii is mediated by complete loss of lipopolysaccharide production” (2010).

In general, MIC refers to the lowest concentration found to suppress growth.

The test system of experiment [1] is Acinetobacter baumannii. Nature of the experiment: Antibacterial activity against colistin-resistant Acinetobacter baumannii ATCC 19606R exhibiting complete loss of lipopolysaccharide production by broth microdilution method. It is filed as functional. A digest of the protocol: (§1)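 Broth microdilution MIC in cation-adjusted Mueller-Hinton broth following the CLSI protocol, read in μg/ml. Strains were kept on Mueller-Hinton agar and cultured at 37°C. 19606R was selected directly on 10 μg/ml colistin and maintained with it. The pWH1266 or pAL840 transformants of 19606R were introduced by electroporation and selected on 100 μg/ml ampicillin.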
In general terms: In broth dilution the organism is exposed to a series of concentrations in liquid medium.

In experiment [2] the test system is Acinetobacter baumannii. As to the kind of experiment: Antibacterial activity against colistin-resistant Acinetobacter baumannii ATCC 19606R harboring pAL840 plasmid encoding intact lpxA gene by broth microdilution method. Type of experiment: functional. A digest of the protocol:
as §1

Experiment [3] concerns Acinetobacter baumannii. Nature of the experiment: Antibacterial activity against colistin-resistant Acinetobacter baumannii ATCC 19606R harboring empty plasmid pWH1266 by broth microdilution method. It is filed as functional. A digest of the protocol: as §1
Experiment [4] deals with Acinetobacter baumannii. The following applies: isolate FADDI008R.

For the sequence COLISTIN SULFATE, the MIC with Acinetobacter baumannii [1] was over 128 µg/mL; with Acinetobacter baumannii [2], 1 µg/mL; in the experiment on Acinetobacter baumannii [3] it was over 128 µg/mL; in the experiment with Acinetobacter baumannii [4] it was over 128 µg/mL.
